Measurements from PMC10892935 (Viruses, 2024).
Some compounds share one wording; it may come from a single statement. For some assays here: The source's definition of the ratio is not given here.

Columns and labels:
FHV-1 = test: Cytopathic effect (CPE) inhibition assay; conditions: selectivity index, CRFK cells
FHV-1 virus particles = test: Transmission electron microscopy of drug-treated virus particles; set-up: species or system feline herpesvirus-1 (FHV-1); conditions: virus incubated in drug solution 37 °C 2 h, TEM

Row | SMILES | SI (FHV-1) | Structural integrity of virus particles (FHV-1 virus particles)
1 | O=C1OC[C@H]2OC(O)[C@H](O)[C@@H](O)[C@@H]2OC(=O)c2cc(O)c(O)c(O)c2-c2c(O)c(O)c3oc(=O)c4c(c(O)c(O)c5oc(=O)c2c3c54)-c2c1cc(O)c(O)c2O (mixture of isomers) [Punicalin] | 34.77 | do not disrupt the structural integrity of virus particles
2 | O=C1O[C@H]2[C@@H]3OC(=O)c4cc(O)c(O)c(O)c4-c4c(O)c(O)c5oc(=O)c6c(c(O)c(O)c7oc(=O)c4c5c76)-c4c(cc(O)c(O)c4O)C(=O)OC[C@H]3OC(O)[C@@H]2OC(=O)c2cc(O)c(O)c(O)c2-c2c1cc(O)c(O)c2O (mixture of isomers) [Punicalagin] | 1.52 | do not disrupt the structural integrity of virus particles
3 | CC1OC(OC2CCC3(C)C(CCC4(C)C3C=CC3=C5CC(C)(C)CCC5(CO)C(O)CC34C)C2(C)CO)C(O)C(OC2OC(CO)C(O)C(O)C2O)C1O (centres unmarked) [Saikosaponin B2] | – | do not disrupt the structural integrity of virus particles
